Results of unrelated studies side by side (data: NIAID ChemDB).

Common to all: tests in culture; organism: Mycobacterium tuberculosis

ECn is the concentration giving n% inhibition of infection, replication or growth.

SMILES	strain or isolate	changes	read by	conditions	measure	tested at	value
CN(C)C1C(=O)C(C(=O)NCNCCC(=O)O)=C(O)C2(O)C(=O)C3=C(O)c4c(O)cccc4C(C)(O)C3CC12	H37Rv	-	BACTEC	-	inhibition	12.5 µg/mL	0%
O=C(c1nc2cc(C(F)(F)F)cc([N+](=O)[O-])c2s1)N1CCCCC1	H37Rv	-	resazurin / absorbance	-	MBC	-	0.5 µg/mL
NCCCCC(C(=O)NC(Cc1ccc(O)cc1)C(=O)NN)N(C(=O)OCc1ccccc1)C(=O)OCc1ccccc1	H37Rv	-	BACTEC	-	inhibition	12.5 µg/mL	6%
C=CCOc1cc(OCC=C)c2c(CCC)cc(=O)oc2c1C(=O)CC	H37Ra	-	-	-	MIC	-	>128 µg/mL
COc1cc(C(O)C2C(=O)OCC2C2(c3ccc4c(c3)OCO4)SCCCS2)cc(OC)c1OC	H37Rv	-	BACTEC	-	inhibition	12.5 µg/mL	0%
CCN(CC)CN1C(=O)/C(=N\c2ncc(Cc3cc(OC)c(OC)c(OC)c3)c(N)n2)c2cc(F)ccc21	H37Rv	-	-	-	EC50	-	>6.25 µg/mL
CC1(C)O[C@H]2OC([C@H](CCO)NCCCCCCCCN[C@@H](CCO)C3O[C@@H]4OC(C)(C)O[C@@H]4[C@H]3OCc3ccccc3)[C@H](OCc3ccccc3)[C@H]2O1	H37Rv	-	-	-	MIC	-	6.25 µg/mL
O=[N+]([O-])c1cc(C(F)(F)F)cc2ncsc12	H37Rv	-	resazurin / absorbance	-	MIC80	-	>16 µg/mL
COc1cc(Cc2cnc(/N=C3\C(=O)N(CN4CCN(c5cccc(C(F)(F)F)c5)CC4)c4ccc(F)cc43)nc2N)cc(OC)c1OC	H37Rv	-	-	-	EC50	-	>6.25 µg/mL
Cn1c(=O)nc(N)n(NC(=O)CCl)c1=O	H37Rv	-	BACTEC	-	MIC bound	-	>12.5 µg/mL
CO[C@H]1/C=C/O[C@@]2(C)Oc3c(C)c(O)c4c(O)c(c5c(c4c3C2=O)NC2(CCN(CC(C)C)CC2)N=5)=NC(=O)/C(C)=C\C=C\[C@H](C)[C@H](O)[C@@H](C)[C@@H](O)[C@@H](C)[C@H](OC(C)=O)[C@@H]1C	H37Rv	-	-	-	MIC	-	0.0025–0.0052 µg/mL
CC(C)N=c1cc2n(-c3ccc(Cl)cc3)c3ccccc3nc-2cc1Nc1ccc(Cl)cc1	H37Rv	-	-	-	MIC	-	0.1 µg/mL
CCCc1cc(=O)oc2c(C(=O)CC)c(O[Si](C)(C)C(C)(C)C)c3c(c12)OC(C)(C)CC3	H37Ra	-	-	-	MIC	-	>128 µg/mL
CC1(C)C[C@H]2[C@@H](C1)[C@@H](C(CCO)NCCCCCCCNC(CCO)[C@H]1O[C@@H]3CC(C)(C)C[C@@H]3[C@H]3CC(C)(C)C[C@H]31)O[C@@H]1CC(C)(C)C[C@H]21	H37Rv	-	-	-	MIC	-	12.5 µg/mL
COc1ccc(C2CC(c3ccc(O)c(C)c3)=NO2)cc1	H37R (MTB)	-	-	-	MIC	-	>6.25 µM
CC1(C)C[C@H]2[C@@H](C1)[C@@H](C(CCO)NCCCCCCCCNC(CCO)[C@H]1O[C@@H]3CC(C)(C)C[C@@H]3[C@H]3CC(C)(C)C[C@H]31)O[C@@H]1CC(C)(C)C[C@H]21	H37Rv	-	-	-	MIC	-	6.25 µg/mL
O=c1[nH]c2ncnc(N=Nc3ncnc4[nH]c(=O)[nH]c34)c2[nH]1	H37Rv	-	BACTEC	-	inhibition	12.5 µg/mL	5%
CCCc1cc(=O)oc2c(C(=O)CC)c(OCC)c3c(c12)OC(C)(C)C=C3	H37Ra	-	-	-	MIC	-	128 µg/mL
N#Cc1c(-c2ccc(Cl)cc2)cn2c1[nH]c(=O)c1cc(Br)ccc12	H37Rv	-	BACTEC	-	inhibition	12.5 µg/mL	38%
CCCc1cc(=O)oc2c(C(O)CC)c(OCC)c3c(c12)OC(C)(C)CC3	H37Ra	-	-	-	MIC	-	>128 µg/mL
Cc1ccc(-c2cc(CN3CCSCC3)c(C)n2-c2ccc(F)cc2)cc1	H37Rv	-	-	-	MIC	-	0.5 µg/mL
Cc1ccc(NCCN(C)C)c2c(=O)c3cc(O)ccc3oc12	PZA-R	-	-	-	MIC	-	12.5 µg/mL
Cc1c(C(F)(F)F)cc2nc(C3=N[C@H](C(=O)N4CCCC4)CO3)sc2c1[N+](=O)[O-]	H37Rv	BTZ-resistant (C387S)	resazurin / absorbance	-	MIC80	-	64 µg/mL
COc1cc(Cc2cnc(/N=C3\C(=O)N(CN4CCN(c5cccc(Cl)c5)CC4)c4ccc(F)cc43)nc2N)cc(OC)c1OC	H37Rv	-	-	-	inhibition	6.25 µg/mL	20%
CC(C)=CC[C@H](O)C1=CC(=O)c2c(O)ccc(O)c2C1=O	H37Rv	-	BACTEC	-	MIC	-	≥12.5 µg/mL
O=C(CCN1C(=O)/C(=C/c2ccc3c(c2)OCO3)SC1=S)NNC(=O)c1cccc2ccccc12	H37Rv	-	-	-	MIC	-	24.75 µM
COCCNC(=O)C1C(=O)N(CCOC)C(=O)/C1=N/N	H37Rv	-	BACTEC	-	inhibition	12.8 µg/mL	14%
COCCN1CCN(C(=O)c2nc3cc(C(F)(F)F)c(C)c([N+](=O)[O-])c3s2)CC1	H37Rv	Overexpressing Rv3790 (DprE1)	resazurin / absorbance	-	MIC80	-	8 µg/mL
Cc1cc(C2=NOC(c3ccco3)C2)ccc1O	INH-resistant M. tuberculosis	-	-	-	MIC	-	4.82 µM
CC1(C)O[C@H]2OC([C@H](CCO)NCCCN[C@@H](CCO)C3O[C@@H]4OC(C)(C)O[C@@H]4[C@H]3OCc3ccccc3)[C@H](OCc3ccccc3)[C@H]2O1	H37Rv	-	-	-	MIC	-	50 µg/mL
COc1cccc(N2CCN(CN3C(=O)/C(=N\c4ncc(Cc5cc(OC)c(OC)c(OC)c5)c(N)n4)c4cc(F)ccc43)CC2)c1	H37Rv	-	-	-	inhibition	6.25 µg/mL	63%
COc1cc(O)c2c(c1)OC1OCCC21	H37Rv	-	BACTEC	-	inhibition	12.5 µg/mL	2%
NNC(=O)c1ccncc1	H37Rv	-	fluorescence / absorbance	-	MIC	-	0.64 µM
CCOC(=O)C[C@H](NCCCCCCCN[C@@H](CC(=O)OCC)C1O[C@@H]2OC(C)(C)O[C@@H]2[C@H]1OCc1ccccc1)C1O[C@@H]2OC(C)(C)O[C@@H]2[C@H]1OCc1ccccc1	H37Rv	-	-	-	MIC	-	25 µg/mL
NC[C@@H]1O[C@H](O[C@H]2[C@@H](O)[C@H](O[C@@H]3[C@@H](O)[C@H](N)C[C@H](N)[C@H]3O[C@H]3O[C@H](CO)[C@@H](O)C[C@H]3N)O[C@@H]2CO)[C@H](N)[C@@H](O)[C@@H]1O[C@H]1O[C@H](CO)[C@@H](O)[C@H](O)[C@@H]1O	Aoyama B (isoniazid-resistant)	-	-	-	EC50	-	25–50 µg/mL
CC1(C)C[C@H]2[C@@H](C1)[C@@H](C(CCO)NCCCCCCCCCNC(CCO)[C@H]1O[C@@H]3CC(C)(C)C[C@@H]3[C@H]3CC(C)(C)C[C@H]31)O[C@@H]1CC(C)(C)C[C@H]21	H37Rv	-	-	-	MIC	-	>25 µg/mL
O=C(Cn1ccnc1)N1CCN(c2ccccc2)CC1	H37Rv	-	resazurin	-	MIC bound	-	>6.25 µg/mL
O=C(CCN1C(=O)/C(=C/c2ccc([N+](=O)[O-])cc2)SC1=S)NNC(=O)c1cccnc1	H37Rv	-	-	-	MIC	-	3.41 µM
CCCc1cc(=O)oc2c(C(O)CC)c(OC(C)C)cc(OC(C)C)c12	H37Ra	-	-	-	MIC	-	>128 µg/mL
Cc1ccc(NCN2C(=O)c3ccccc3C2=O)cc1Cl	H37Rv	-	BACTEC	-	inhibition	12.5 µg/mL	47%
COc1cc(C2CC(c3ccc(O)c(C)c3)=NO2)ccc1O	INH-resistant M. tuberculosis	-	-	-	MIC	-	6.25 µM
Cc1ccc2c(c1)nc1cc3c(cc1n2C1CCCCC1)c(Cl)c(=O)c1ccccc13	H37Rv	-	BACTEC	-	inhibition	12.5 µg/mL	100%
CO[C@H]1/C=C/O[C@@]2(C)Oc3c(C)c(O)c4c(O)c(c(/C=N/N5CCN(C6CCCC6)CC5)c(O)c4c3C2=O)NC(=O)/C(C)=C\C=C\[C@H](C)[C@H](O)[C@@H](C)[C@@H](O)[C@@H](C)[C@H](O)[C@@H]1C	Isolate 900240 drug-susceptible	-	-	-	MIC	-	0.25 µg/mL
C[C@]1(COc2ccc(N3CCC(Oc4ccc(OC(F)(F)F)cc4)CC3)cc2)Cn2cc([N+](=O)[O-])nc2O1	ATCC 35837 (H37RV-E-R)	-	-	-	MIC	-	0.012 µg/mL
CC1(C)C[C@H]2[C@@H](C1)[C@@H](C(CCO)NCCCCCCCCCCNC(CCO)[C@H]1O[C@@H]3CC(C)(C)C[C@@H]3[C@H]3CC(C)(C)C[C@H]31)O[C@@H]1CC(C)(C)C[C@H]21	H37Rv	-	-	-	MIC	-	6.25 µg/mL
O=C(c1ccccc1)c1c(CO[N+](=O)[O-])n([O-])c2ccccc2[n+]1=O	ETA-R	-	-	-	MIC	-	12.5 µg/mL
CO[C@H]1/C=C/O[C@@]2(C)Oc3c(C)c(O)c4c(O)c(c(/C=N/N5CCN(C6CCCC6)CC5)c(O)c4c3C2=O)NC(=O)/C(C)=C\C=C\[C@H](C)[C@H](O)[C@@H](C)[C@@H](O)[C@@H](C)[C@H](OC(C)=O)[C@@H]1C	H37Rv	-	-	-	MIC	-	0.017 µg/mL
CCCc1cc(=O)oc2c3c(cc(OC(C)C)c12)O[C@H](C)[C@H](C)C3O	H37Ra	-	-	-	MBC	-	64 µg/mL
Cc1c2ccn(O)cc2c(C)c2c1nc1ccccc12	H37Rv	-	BACTEC	-	MIC bound	-	>12.5 µg/mL
CCOC(=O)C[C@H](NCCCCCCCCN[C@@H](CC(=O)OCC)C1O[C@@H]2OC(C)(C)O[C@@H]2[C@H]1OCc1ccccc1)C1O[C@@H]2OC(C)(C)O[C@@H]2[C@H]1OCc1ccccc1	H37Rv	-	-	-	MIC	-	6.25 µg/mL
COc1cc(Cc2cnc(/N=C3\C(=O)N(CN4CCC(C)CC4)c4ccc(F)cc43)nc2N)cc(OC)c1OC	H37Rv	-	-	-	inhibition	6.25 µg/mL	24%
COCCN1CCN(C(=O)c2nc3cc(C(F)(F)F)cc([N+](=O)[O-])c3s2)CC1	H37Rv	Overexpressing Rv3790 (DprE1)	resazurin / absorbance	-	MIC80	-	16 µg/mL
Cc1c(OCC(F)(F)F)ccnc1CSc1nc2ccccc2[nH]1	-	-	resazurin	clinical isolate	MIC90	-	1.06 µM
NCC[C@H](O)C(=O)N[C@@H]1C[C@H](N)[C@@H](O[C@H]2O[C@H](CN)[C@@H](O)[C@H](O)[C@H]2O)[C@H](O)[C@H]1O[C@H]1O[C@H](CO)[C@@H](O)[C@H](N)[C@H]1O	90-0201 (DRUG-SUS)	-	-	-	MIC	-	0.5 µg/mL
Cc1c(N2CC3CCCNC3C2)c(F)cc2c(=O)c(C(=O)O)cn(C3CC3)c12	56 (RFP-resistant)	-	-	-	MIC	-	3.13 µg/mL
O=c1[nH]c2cc3c(cc2n2cccc12)oc1ccccc13	H37Rv	-	BACTEC	-	inhibition	12.5 µg/mL	-10%
C/C=C/C/C=C/CCC(=O)[C@H]1O[C@H]1C(N)=O	90-0201 (DRUG-SUS)	-	-	-	MIC	-	5 µg/mL
C#CCOc1cc2c(c3oc(=O)cc(CCC)c13)C(O)[C@H](C)[C@@H](C)O2	H37Ra	-	-	-	MIC	-	>128 µg/mL
CCC(C)C(C1=C(O)c2ccccc2C(=O)C1=O)C1=C(O)c2ccccc2C(=O)C1=O	H37Rv	-	BACTEC	-	inhibition	12.8 µg/mL	26%
C#C[C@@]12O[C@]1(C=O)[C@@H]1[C@@H](O)C[C@H]3C(C)(C)CCC[C@]3(C)[C@H]1CC2=O	Sensitive strains	-	-	-	MIC	-	25 µg/mL
O=C(CCN1C(=O)/C(=C/c2ccc(OCc3ccccc3)cc2)SC1=S)NNC(=O)c1cccnc1	H37Rv	-	-	-	MIC	-	12.07 µM
O=C(O)c1cn(C2CC2F)c2c(Cl)c(N3CC4CCCNC4C3)c(F)cc2c1=O	40 (RFP-susceptible)	-	-	-	MIC	-	0.025 µg/mL
Cc1cc(C2=NOC(c3ccccc3)C2)ccc1O	INH-resistant M. tuberculosis	-	-	-	MIC	-	6.25 µM
O=[N+]([O-])c1cc(C(F)(F)F)cc2nc(C3=NCCO3)sc12	H37Rv	BTZ-resistant (C387G)	resazurin / absorbance	-	MIC80	-	>64 µg/mL
O=C(CCN1C(=O)/C(=C/c2ccc(Cl)cc2)SC1=S)NNC(=O)c1cccnc1	H37Rv	-	-	-	MIC	-	7.01 µM
CCOC(=N)CC(=N)OCC	H37Rv	-	BACTEC	-	MIC bound	-	>12.5 µg/mL
O=C(O)/C=C/c1ccccc1	90-0233 (isoniazid streptomycin-resistant)	-	-	-	MIC	-	200 µg/mL
Nc1c(C(=O)NCCc2ccccc2)c2nc3c(C(=O)NCCc4ccccc4)ccc(Br)c3oc-2c(Br)c1=O	H37Rv	-	BACTEC	-	MIC bound	-	>12.5 µg/mL
O=C(N/N=C/c1cc(O)ccc1O)c1cccnc1	H37Rv	-	broth dilution / resazurin	-	MIC	-	1.04 µg/mL
COC1(OC)C(=S)N(C(C)C)C(=S)N1C(C)C	H37Rv	-	BACTEC	-	MIC bound	-	>12.5 µg/mL
CCC1CN(c2c(F)cc3c(=O)c(C(=O)O)cn([C@@H]4C[C@@H]4F)c3c2OC)CCN1	68 (RFP-susceptible)	-	-	-	MIC	-	0.25 µg/mL
COc1cc(Cc2cnc(/N=C3\C(=O)N(CN4CCN(c5c(F)cc6c(=O)c(C(=O)O)cn(C7CC7)c6c5OC)CC4C)c4ccc(F)cc43)nc2N)cc(OC)c1OC	H37Rv	-	-	-	inhibition	6.25 µg/mL	100%

Two numbers with a dash give a range or band. A number after MIC or MFC names an inhibition level or a share of isolates. Conditions beyond the fields shown may differ between rows. Blank or dashed fields: not listed here. Inhibition is in % at the dose shown (toxicity tests: loss of growth or viability). MIC bound comes from a single tested concentration.